Pooled drug test results. Numbers come from NIAID ChemDB, via PubChem.

All rows: enzyme or target tests; species: HIV-1; target: Protease; measure: inhibition

Neighbouring rows are from separate reports.

compound | method | dose | value
CC(C)(C)NC(=O)[C@@H]1CSCN1C(=O)[C@@H](O)[C@H](Cc1ccccc1)NC(=O)[C@H](CS(C)(=O)=O)NC(=O)COc1cccc(C(=O)N2CCCCC2)c1 |  | 0.05 µM | 74.6%
COC(=O)[C@@H](NC(=O)C[C@@H]1CC[C@H](NC(=O)[C@H](C)NC(=O)OC(C)(C)C)[C@H]1O)C(C)C | absorbance | 10 µM | 0%
CC(C)(C)NC(=O)[C@@H]1CCCN1C(=O)[C@@H](O)[C@H](Cc1ccccc1)NC(=O)[C@H](CC(=O)NN)NC(=O)OCc1cccc2ccccc12 |  | 0.05 µM | 72.8%
CCC(=O)O[C@H]1c2cc3c(c(OC)c2-c2c(cc(OC)c(OC)c2O)C[C@@H](C)[C@H]1C)OCO3 | HPLC | 100 µg/mL | 41%
COC(=O)c1cc(O)c(O)c(O)c1 | HPLC | 100 µM | 24.6%
COc1c(O)cc2oc(-c3ccc(O)cc3)cc(=O)c2c1O | substrate cleavage / fluorescence | 1000 µg/mL | 86%
CC[C@H](C)[C@H](NC(=O)OC(C)(C)C)C(=O)N[C@@H]1CC[C@H](CC(=O)N[C@H](C(=O)OC)C(C)C)[C@H]1O | absorbance | 10 µM | 21%
CC(C)[C@H](C)OC(=O)[C@H](Cc1ccccc1)NC(=O)C(=O)N[C@@H](Cc1ccccc1)C(=O)O[C@@H](C)C(C)C | absorbance | 10 µM | <10%
CC(=O)N[C@@H](CSC(=O)[C@]1([C@@H](O)CC(C)C)NC(=O)[C@H](C)[C@@H]1O)C(=O)O |  | 100 µM | 0%
CC[C@H](C)[C@H](NC(=O)OC(C)(C)C)C(=O)N[C@H]1CC[C@@H](CC(=O)N[C@@H](CC(C)C)C(=O)OC)[C@@H]1O | absorbance | 10 µM | 24%
NC(=O)C[C@H](NC(=O)COc1cccc2ccccc12)C(=O)N[C@@H](Cc1ccccc1)[C@H](O)C(=O)N1CSC[C@H]1C(=O)N1CCCCC1 |  | 5 µM | >90%
O=c1cc(-c2ccc(O)cc2)oc2cc(O)cc(O)c12 | substrate cleavage / fluorescence | 1000 µg/mL | 91.3%
CC(C)[C@H](NC(=O)CCC(=O)CCC(=O)N[C@H](C(=O)OCc1ccccc1)C(C)C)C(=O)OCc1ccccc1 | absorbance | 10 µM | <10%
CC[C@H](C)[C@H](NC(=O)OC(C)(C)C)C(=O)N[C@H]1[C@@H](CC(=O)N[C@@H](CC(C)C)C(=O)OC)CC[C@@H]1O | absorbance | 10 µM | 8%
C[C@@H]1CC[C@]2(C(=O)O[C@@H]3O[C@H](CO)[C@@H](O)[C@H](O)[C@H]3O)CC[C@@H]3C(=CC[C@H]4[C@@]3(C)CC[C@H]3C(C)(C)[C@H](O)[C@H](O)C[C@]43C)[C@@H]2[C@]1(C)O | HPLC | 100 µM | 37.3%
CC(C)COC(=O)[C@H](CC(C)C)NC(=O)N[C@@H](CC(C)C)C(=O)OCC(C)C | absorbance | 10 µM | 41%
COC(=O)[C@H](CC(C)C)NC(=O)C[C@@H]1CC[C@H](NC(=O)[C@H](C)NC(=O)OC(C)(C)C)[C@H]1O | absorbance | 10 µM | 13%
CC[C@H](C)[C@H](NC(=O)[C@@H]1CCCN1C(=O)[C@H](O)[C@H](Cc1ccccc1)NC(=O)[C@H](CO)NC(=O)CCc1ccccc1)C(=O)N[C@H](C(N)=O)C(C)C |  | 5 µM | 16.9%
COC(=O)[C@@H](NC(=O)C[C@@H]1CC[C@@H](O)[C@@H]1NC(=O)[C@H](Cc1ccccc1)NC(=O)OC(C)(C)C)C(C)C | absorbance | 10 µM | 25%
CCC(C)C(NC(=O)C1CCCN1C(=O)C(=O)N1CCCC1C(=O)NC(C(=O)NC(C(=O)OC)C(C)C)C(C)CC)C(=O)NC(C(=O)OC)C(C)C | absorbance | 10 µM | <10%
COC(=O)[C@@H](NC(=O)C[C@@H]1CC[C@H](NC(=O)[C@H](Cc2ccccc2)NC(=O)OC(C)(C)C)[C@H]1O)C(C)C | absorbance | 10 µM | 0%
CS(=O)(=O)C[C@H](NC(=O)COc1cccc2ccccc12)C(=O)N[C@@H](Cc1ccccc1)[C@H](O)C(=O)N1CCC[C@H]1C(=O)Nc1ccc(O)cc1 |  | 5 µM | >90%
COC(=O)[C@@H](NC(=O)[C@H](Cc1ccccc1)NC(=O)CC(=O)N[C@@H](Cc1ccccc1)C(=O)N[C@H](C(=O)OC)C(C)C)C(C)C | absorbance | 10 µM | <10%
CC[C@@H](C)[C@H](NC(=O)[C@@H]1CCCN1C(=O)[C@@H](O)[C@H](Cc1ccccc1)NC(=O)[C@H](CC(N)=O)NC(=O)OC(C)(C)C)C(=O)NCC(C)C |  | 5 µM | 14.7%
CC[C@H](C)[C@H](NC(=O)OC(C)(C)C)C(=O)N[C@H]1[C@@H](CC(=O)N[C@H](C(=O)OC)C(C)C)CC[C@@H]1O | absorbance | 10 µM | 18%
COC(=O)[C@H](Cc1ccccc1)NC(=O)CC(=O)N[C@@H](Cc1ccccc1)C(=O)OC | absorbance | 10 µM | 28%
CC(C)(C)NC(=O)[C@@H]1C[C@@H](C2CCCCC2)CN1C(=O)[C@@H](O)[C@H](Cc1ccccc1)NC(=O)[C@H](CC(N)=O)NC(=O)OCc1ccccc1 |  | 0.05 µM | 0.5%
COC(=O)[C@@H](NC(=O)C[C@H]1CC[C@H](O)[C@H]1NC(=O)[C@H](C)NC(=O)OC(C)(C)C)C(C)C | absorbance | 10 µM | 0%
CC1=CC[C@H]([C@@H](C)C2CC[C@@]3(C)C4=C(C=C5C=CC(=O)OC(C)(C)C5CC4)CC[C@]23C)OC1=O | HPLC | 100 µg/mL | 94.8%
CC[C@@H](C)[C@H](NC(=O)[C@@H]1CCCN1C(=O)[C@@H](O)[C@H](CC1CCCCC1)NC(=O)[C@H](CC(N)=O)NC(=O)[C@@H]1Cc2ccccc2CN1)C(=O)N[C@H](C(N)=O)C(C)C |  | 5 µM | 96.6%
CC(C)[C@H](NC(=O)/C=C/C(=O)N[C@H](C(=O)OCc1ccccc1)C(C)C)C(=O)OCc1ccccc1 | absorbance | 10 µM | <10%

The last 2 rows once more:

compound | method | dose | value
CC[C@@H](C)[C@H](NC(=O)[C@@H]1CCCN1C(=O)[C@@H](O)[C@H](CC1CCCCC1)NC(=O)[C@H](CC(N)=O)NC(=O)[C@@H]1Cc2ccccc2CN1)C(=O)N[C@H](C(N)=O)C(C)C |  | 5 µM | 96.6%
CC(C)[C@H](NC(=O)/C=C/C(=O)N[C@H](C(=O)OCc1ccccc1)C(C)C)C(=O)OCc1ccccc1 | absorbance | 10 µM | <10%

Blank or dashed fields: not listed here. Inhibition is in % at the dose shown (toxicity tests: loss of growth or viability).